Measured values from several laboratories, pooled; numbers as filed in NIAID ChemDB.

All rows: growth or infection tests; species: Mycobacterium tuberculosis

MIC bound: limit read from a one-dose screen.

structure,changes,measure,tested at,read by,strain,result
CC[C@H]1OC(=O)[C@H](C)[C@@H](O[C@H]2C[C@@](C)(OC)[C@@H](O)[C@H](C)O2)[C@H](C)[C@@H](O[C@@H]2O[C@H](C)C[C@H](N(C)C)[C@H]2O)[C@](C)(OC)C[C@@H](C)C(=O)[C@H](C)[C@@H](O)[C@]1(C)O,-,MIC,-,-,Isolate 2237,0.125 µg/mL
O=C1C=C([C@@H]2O[C@H](CO)[C@@H](O)[C@H]2O)C(=O)N1,-,inhibition,12.8 µg/mL,BACTEC,H37Rv,11%
CCN(CC)c1cc2nc(C3CCCCC3)[nH]c2cc1NC(=O)c1ccccc1,-,MIC99,-,resazurin,H37Rv,4.3 µM
CCCCN(CCCC)c1cc2c(O)c3c(O)c(C)c4c(c13)C(=O)[C@@](C)(O/C=C/[C@H](OC)[C@@H](C)[C@@H](OC(C)=O)[C@H](C)[C@H](O)[C@H](C)[C@@H](O)[C@@H](C)/C=C/C=C(/C)C(=O)N2)O4,-,MIC,-,-,H37Rv,0.2 µg/mL
O=C(NCCCN1c2ccccc2Sc2ccccc21)N1C(=O)/C(=C\c2ccc(Cl)cc2)SC1c1ccc(Cl)cc1,-,inhibition,50 µg/mL,agar,H37Rv,74%
Cc1cccc(Nc2nnc(-c3sc4ccc(Cl)cc4c3Cl)s2)c1C,-,inhibition,6.25 µg/mL,BACTEC,H37Rv,0%
CCOc1cc(N(CC)CC)cc2oc3cc(=[N+](CC)CC)ccc-3nc12.[Cl-],-,inhibition,12.5 µg/mL,BACTEC,H37Rv,67%
COc1ccccc1Nc1nnc(-c2sc3ccc(Cl)cc3c2Cl)s1,-,inhibition,6.25 µg/mL,BACTEC,H37Rv,0%
CCN(CC)c1cc2c(O)c3c(O)c(C)c4c(c13)C(=O)[C@@](C)(O/C=C/[C@H](OC)[C@@H](C)[C@@H](OC(C)=O)[C@H](C)[C@H](O)[C@H](C)[C@@H](O)[C@@H](C)/C=C/C=C(/C)C(=O)N2)O4,-,MIC,-,-,H37Rv,0.05 µg/mL
CN(C)CCCN1c2ccccc2Sc2ccc(Cl)cc21,-,MIC,-,-,H37Rv,16 µg/mL
CO[C@H]1/C=C/O[C@@]2(C)Oc3c(C)c(O)c4c(O)c(cc(N5CCCCC5)c4c3C2=O)NC(=O)/C(C)=C\C=C\[C@H](C)[C@H](O)[C@@H](C)[C@@H](O)[C@@H](C)[C@H](OC(C)=O)[C@@H]1C,-,MIC,-,-,H37Rv,0.1 µg/mL
COc1ccc2oc3cc4c(c(O)c3c(=O)c2c1CC=C(C)C)C=CC(C)(C)O4,-,MIC bound,-,BACTEC,H37Rv,>12.5 µg/mL
CCCCC(=O)Oc1ccc2c(c1)[nH]c1c(C)nccc12,-,EC50,-,-,H37Rv,>6.25 µg/mL
C[C@H]1[C@H](C)CC[C@]2(C(=O)O)CC[C@]3(C)C(CC[C@@H]4[C@@]5(C)C[C@H](O)CC(C)(C)[C@@H]5CC[C@]43C)[C@H]12,-,MIC,-,resazurin,STR-R (ATCC 35820),12.5 µg/mL
Cc1ccccc1C1SCC(=O)N1C(=O)NCCCN1c2ccccc2Sc2ccccc21,-,inhibition,50 µg/mL,agar,H37Rv,45%
CC(=O)NCC1OC2COC(c3ccccc3)OC2C2N=C(c3ccccc3)OC12,-,inhibition,12.5 µg/mL,BACTEC,H37Rv,15%
CCCN(CCC)c1cc2c(O)c3c(O)c(C)c4c(c13)C(=O)[C@@](C)(O/C=C/[C@H](OC)[C@@H](C)[C@@H](OC(C)=O)[C@H](C)[C@H](O)[C@H](C)[C@@H](O)[C@@H](C)/C=C/C=C(/C)C(=O)N2)O4,-,MIC,-,-,H37Rv,0.2 µg/mL
Cc1ccc(Nc2nnc(-c3sc4ccc(Cl)cc4c3Cl)s2)cc1,-,inhibition,6.25 µg/mL,BACTEC,H37Rv,0%
Cc1nccc2c1[nH]c1cc(OC(=O)/C=C/c3ccccc3)ccc12,-,EC50,-,-,H37Rv,>6.25 µg/mL
C[C@]1(COc2ccc(N3CCC(Oc4ccc(OC(F)(F)F)cc4)CC3)cc2)Cn2cc([N+](=O)[O-])nc2O1,-,MIC,-,-,H37Rv,0.012 µg/mL
CC[C@@H](C)N1CCN(c2cc(=O)c3nc4c(oc3c2)c2c(=O)c3c(O)c(C)c5c(c34)=C(O)[C@@](C)(O/C=C/[C@H](OC)[C@@H](C)[C@@H](OC(C)=O)[C@H](C)[C@H](O)[C@H](C)[C@@H](O)[C@@H](C)/C=C/C=C(/C)C(=O)N2)O5)CC1,-,MIC50,-,-,16 strains (rifampicin-susceptible),≤0.0125 µg/mL
CC[C@@H](CO)NCCN[C@@H](CC)CO,-,MIC,-,broth dilution,CDC1551,8 µg/mL
O=C(/N=C/c1ccc(Cl)cc1)NCCCN1c2ccccc2Sc2ccccc21,-,inhibition,50 µg/mL,agar,H37Rv,32%
CCc1cn2c(nc1=O)O[C@@H]1[C@H](F)[C@H]2O[C@@H]1CO,-,MIC25,-,resazurin,H37Ra,50 µg/mL
O=S(=O)(O)CCCN1c2ccccc2Sc2ccc(Cl)cc21,gfp,MIC,-,fluorescence,H37Rv-GFP,25 µg/mL
O=C(NNC(=S)Nc1cccc(Cl)c1)c1sc2ccc(Cl)cc2c1Cl,-,inhibition,6.25 µg/mL,BACTEC,H37Rv,0%
CCCC(NC(=O)OCc1ccccc1)C(=O)NC(CO)C(=O)O,-,inhibition,12.8 µg/mL,BACTEC,H37Rv,-6%
COc1ccc(C(=O)c2ccc(-c3ccc(Br)cc3)cc2)cc1,-,MIC,-,-,ATCC 27294,≥32 µg/mL
CCOc1ccc(/C=N/NC(=O)c2cccc3ccccc23)cc1OCC,-,MIC bound,-,BACTEC,H37Rv,>12.5 µg/mL
O=C1CSC(c2ccc(Cl)cc2)N1C(=O)NCCCN1c2ccccc2Sc2ccccc21,-,inhibition,50 µg/mL,agar,H37Rv,55%
CC(=O)Oc1ccc2c(c1)[nH]c1c(C)nccc12,-,inhibition,6.25 µg/mL,-,H37Rv,15%
C=CCN(CC=C)c1cc2c(O)c3c(O)c(C)c4c(c13)C(=O)[C@@](C)(O/C=C/[C@H](OC)[C@@H](C)[C@@H](OC(C)=O)[C@H](C)[C@H](O)[C@H](C)[C@@H](O)[C@@H](C)/C=C/C=C(/C)C(=O)N2)O4,-,MIC,-,-,H37Rv,0.1 µg/mL
CCCN1CCN(c2cc(=O)c3nc4c(oc3c2)c2c(=O)c3c(O)c(C)c5c(c34)=C(O)[C@@](C)(O/C=C/[C@H](OC)[C@@H](C)[C@@H](OC(C)=O)[C@H](C)[C@H](O)[C@H](C)[C@@H](O)[C@@H](C)/C=C/C=C(/C)C(=O)N2)O5)CC1,-,MIC90,-,-,16 strains (rifampicin-susceptible),1.56 µg/mL
O=C(c1ccccc1)c1ccc(-c2ccc(Br)cc2)cc1,-,MIC,-,-,ATCC 27294,≥32 µg/mL
OC[C@H]1O[C@@H](n2cnc3cc(Cl)c(Cl)cc32)[C@H](O)[C@@H]1O,-,inhibition,6.25 µg/mL,BACTEC,H37Rv,0%
Cc1[nH]ccc2c1[nH]c1cc(=O)ccc12,-,EC50,-,-,H37Rv,>6.25 µg/mL
O=C(O)c1cccnc1C(=O)Nc1cccc2ccccc12,-,MIC bound,-,resazurin,H37Rv,>6.25 µg/mL
CO[C@H]1/C=C/O[C@@]2(C)Oc3c(C)c(O)c4c(O)c(cc(N5CCC(C)CC5)c4c3C2=O)NC(=O)/C(C)=C\C=C\[C@H](C)[C@H](O)[C@@H](C)[C@@H](O)[C@@H](C)[C@H](OC(C)=O)[C@@H]1C,-,MIC,-,-,H37Rv,0.2 µg/mL
O=C(O)c1ccccc1Nc1cccc2c1C(=O)c1cccc(Nc3ccccc3C(=O)O)c1C2=O,-,inhibition,12.5 µg/mL,BACTEC,H37Rv,3%
N#Cc1c(NC(=O)c2ccc(Cl)cc2)oc(-c2ccccc2)c1-c1ccccc1,-,inhibition,50 µg/mL,resazurin,H37Rv,19%
Clc1ccc2sc(-c3nnc(Nc4ccccc4)s3)c(Cl)c2c1,-,inhibition,6.25 µg/mL,BACTEC,H37Rv,0%
CCCCCCNc1ccc2cnn(C)c2c1,-,MIC,-,resazurin,H37Rv,>100 µM
CCCCCCC(=O)Oc1ccc2c(c1)[nH]c1c(C)nccc12,-,inhibition,6.25 µg/mL,-,H37Rv,29%
CC1CCCN(C(=S)S)C1.CC1CCCNC1,-,MIC,-,-,EMB-R,0.8 µg/mL
c1ccc2c(c1)Sc1ccccc1N2CC1CC2CCC23CCN13,-,MIC,-,-,H37Rv,8 µg/mL
Clc1cccc(Nc2nnc(-c3sc4ccc(Cl)cc4c3Cl)s2)c1,-,inhibition,6.25 µg/mL,BACTEC,H37Rv,0%
CN(C)CC1CCC2=C(C1=O)C(c1ccc(Cl)c(Cl)c1)C1=C(CCC(CN(C)C)C1=O)O2,-,MIC bound,-,BACTEC,H37Rv,>12.5 µg/mL
O=C(NCCCN1c2ccccc2Sc2ccccc21)N1C(=O)/C(=C\c2cccc(Cl)c2)SC1c1cccc(Cl)c1,-,inhibition,25 µg/mL,agar,H37Rv,36%
COc1ccc2c(=O)oc3c(OC)cc(CCN(C)C)c4c(=O)oc1c2c34,-,MIC,-,BACTEC,H37Rv,32 µg/mL
CC(CN(C)C)CN1c2ccccc2S(=O)(=O)c2ccc(Cl)cc21,-,MIC,-,-,H37Rv,256 µg/mL
O=c1[nH]c(=S)c(CO)cn1C1OC(CO)C(O)C1O,-,MIC100,-,resazurin,H37Ra,100 µg/mL
O=C1O/C(=C(/C(=O)O)c2ccc(O)cc2)C(O)=C1c1cc2c3c(c(O)cc(C4=C(O)/C(=C(\C(=O)O)c5ccc(O)cc5)OC4=O)c3c1)OC2=O,-,inhibition,12.5 µg/mL,BACTEC,H37Rv,17%
O=C1CSC(c2cccc(O)c2)N1C(=O)NCCCN1c2ccccc2Sc2ccccc21,-,inhibition,25 µg/mL,agar,H37Rv,34%
CC(=O)NC[C@H]1CN(c2ccc(N3CCOCC3)c(F)c2)C(=O)O1,T460C Cys154Arg,MIC,-,-,linezolid resistant 8.3,16 µg/mL
CC(=O)NC[C@H]1CN(c2ccc(N3CCN(Cc4ccc([N+](=O)[O-])s4)CC3)c(F)c2)C(=O)O1,-,Geometric mean MIC,-,-,59 isolates,0.052 µg/mL
CCc1cn(C2OC(CO)C(Br)C2F)c(=O)[nH]c1=O,-,MIC65,-,resazurin,H37Ra,50 µg/mL
O=C(NNC(=S)Nc1ccccc1)c1sc2ccc(Cl)cc2c1Cl,-,inhibition,6.25 µg/mL,BACTEC,H37Rv,0%
CCCCCNc1ccc(NCCCCC)c2c1C(=O)c1ccccc1C2=O,-,MIC bound,-,BACTEC,H37Rv,>12.5 µg/mL
CC(=O)Oc1ccc(C(=O)c2ccc(-c3ccc(Br)cc3)cc2)cc1,-,MIC,-,-,ATCC 27294,≥32 µg/mL
Nc1ccccc1Nc1c([N+](=O)[O-])cc(C(F)(F)F)cc1[N+](=O)[O-],-,MIC,-,BACTEC,H37Rv,12.5 µg/mL
CCOC(=O)N1CCN(c2cc3c(O)c4c(O)c(C)c5c(c24)C(=O)[C@@](C)(O/C=C/[C@H](OC)[C@@H](C)[C@@H](OC(C)=O)[C@H](C)[C@H](O)[C@H](C)[C@@H](O)[C@@H](C)/C=C/C=C(/C)C(=O)N3)O5)CC1,-,MIC,-,-,H37Rv,0.1 µg/mL
O=C([C@@H](O)CO)N1CC=C(c2c(F)cc(N3C[C@H](COc4ccon4)OC3=O)cc2F)CC1,-,MIC,-,broth dilution,H37Rv Erdman,0.5 µg/mL
O=C(O)/C=C/C(=O)NNc1ccc(Cl)cc1Cl,-,MIC,-,BACTEC,H37Rv,≥12.5 µg/mL
CO[C@H]1/C=C/O[C@@]2(C)Oc3c(C)c(O)c4c(O)c(cc(N5CCNCC5)c4c3C2=O)NC(=O)/C(C)=C\C=C\[C@H](C)[C@H](O)[C@@H](C)[C@@H](O)[C@@H](C)[C@H](OC(C)=O)[C@@H]1C,-,MIC,-,-,H37Rv,0.1 µg/mL
COc1ccc(NS(=O)(=O)c2ccc(NCc3c4ccccc4nc4ccccc34)cc2)nn1,-,inhibition,12.5 µg/mL,BACTEC,H37Rv,-32%
CCCCCCCC(=O)Oc1ccc2c(c1)[nH]c1c(C)nccc12,-,EC50,-,-,H37Rv,>6.25 µg/mL
Cc1ccc(NNC(=O)C(O)C(O)C(O)C(O)CO)cc1,-,MIC bound,-,BACTEC,H37Rv,>12.5 µg/mL
Cc1cccc(C2SCC(=O)N2C(=O)NCCCN2c3ccccc3Sc3ccccc32)c1,-,inhibition,50 µg/mL,agar,H37Rv,42%
COc1cccc(N=Nc2c(C)[nH]n(C(N)=S)c2=O)c1,-,MIC,-,BACTEC,H37Rv,≥12.8 µg/mL
CC(=O)Nc1oc(-c2ccccc2)c(-c2ccccc2)c1C#N,-,inhibition,50 µg/mL,resazurin,H37Rv,27%
N.N.S=C(S)N1CCC(CCCC2CCN(C(=S)S)CC2)CC1,-,MIC,-,BACTEC,H37Rv,≥128 µg/mL
CC(CN1c2ccccc2Sc2ccc(Cl)cc21)N(C)C,-,MIC,-,-,H37Rv,256 µg/mL

Repeating the final 8 entries:

{"structure": "COc1ccc(NS(=O)(=O)c2ccc(NCc3c4ccccc4nc4ccccc34)cc2)nn1", "measure": "inhibition", "tested at": "12.5 µg/mL", "read by": "BACTEC", "strain": "H37Rv", "result": "-32%"}
{"structure": "CCCCCCCC(=O)Oc1ccc2c(c1)[nH]c1c(C)nccc12", "measure": "EC50", "strain": "H37Rv", "result": ">6.25 µg/mL"}
{"structure": "Cc1ccc(NNC(=O)C(O)C(O)C(O)C(O)CO)cc1", "measure": "MIC bound", "read by": "BACTEC", "strain": "H37Rv", "result": ">12.5 µg/mL"}
{"structure": "Cc1cccc(C2SCC(=O)N2C(=O)NCCCN2c3ccccc3Sc3ccccc32)c1", "measure": "inhibition", "tested at": "50 µg/mL", "read by": "agar", "strain": "H37Rv", "result": "42%"}
{"structure": "COc1cccc(N=Nc2c(C)[nH]n(C(N)=S)c2=O)c1", "measure": "MIC", "read by": "BACTEC", "strain": "H37Rv", "result": "≥12.8 µg/mL"}
{"structure": "CC(=O)Nc1oc(-c2ccccc2)c(-c2ccccc2)c1C#N", "measure": "inhibition", "tested at": "50 µg/mL", "read by": "resazurin", "strain": "H37Rv", "result": "27%"}
{"structure": "N.N.S=C(S)N1CCC(CCCC2CCN(C(=S)S)CC2)CC1", "measure": "MIC", "read by": "BACTEC", "strain": "H37Rv", "result": "≥128 µg/mL"}
{"structure": "CC(CN1c2ccccc2Sc2ccc(Cl)cc21)N(C)C", "measure": "MIC", "strain": "H37Rv", "result": "256 µg/mL"}

Lines come from different laboratories, so protocols vary. An empty or dashed field is not shown. Percent inhibition refers to the dose given; in toxicity tests it is the harm to the cells. MIC50, MIC90 and the like: level of inhibition, or share of isolates inhibited. ECn: concentration that inhibits the pathogen or its effect by n%.